Laboratory results: PubChem BioAssay AID1259414 (Drosophila RNAi Screening Center, 2018)
Assay: 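Fly genes that alter Wolbachia amount inside host cells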 (primary screen). Cell system: Drosophila JW18 cells infected with Wolbachia. Reagents: long dsRNA against Drosophila genes, 0.25 µg dsRNA per well of a 384-well plate. Timing: 5 days. Conditions: cells persistently infected with Wolbachia before knock-down; no added drug. Measured: 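Imaged fluorescence in situ signal for Wolbachia 23S rRNA per DAPI-counted host cell, given as a robust z-score within each plate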. Reading the numbers: Wolbachia per cell robust z: higher = more Wolbachia per host cell than the plate typical. Call rule: 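Hit when robust z is 1.5 or more, or -1.5 or less, in at least two of three replicates; excludes dsRNAs with several or no targets, genes not expressed in JW18 and well A1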.
In all, the deposit lists about 24,000 reagents; shown is a random part of those that have a named target and a result. Over the whole deposit, about 1,210 (5%) were called active. 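Inactive calls also include excluded dsRNAs with several or no targets, genes unexpressed in JW18, and well A1, regardless of score.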 A plus sign joins genes that one reagent is predicted to hit.

target gene	DRSC id	Wolbachia per cell robust z, rep 1	Wolbachia per cell robust z, rep 2	Wolbachia per cell robust z, rep 3	Call
Gk2	DRSC08610	0.318	0.927	0.197	inactive
CG42655	DRSC40518	-2.68	-0.117	-0.677	inactive
baf	DRSC03051	1.56	-0.12	0.374	inactive
baf	DRSC26974	0.328	-0.83	0.673	inactive
Ddc	DRSC03314	0.707	-0.154	-1.26	inactive
Ddc	DRSC39110	0.484	0.0967	-4.71	inactive
CG8187	DRSC07099	0.217	1.41	-0.308	inactive
CG13001	DRSC24970	-0.99	1.36	-1.08	inactive
Coq9	DRSC22913	-3.56	0.23	-0.138	inactive
CG18473	DRSC16381	1.05	-0.0749	1.31	inactive
CG33758	DRSC38885	-0.461	-0.817	-0.841	inactive
CG33958	DRSC06472	-1.53	-2.24	-0.304	inactive
CG33958	DRSC06944	0.65	-0.205	0.37	inactive
CG33958	DRSC29635	0.64	0.454	0.624	inactive
CR32745	DRSC17442	0.987	0.907	0.578	inactive
CR32745	DRSC29689	0.396	0.761	0.663	inactive
Psi	DRSC07519	1.54	0.89	1.42	inactive
Psi	DRSC25220	0.71	-1.54	-0.383	inactive
Psi	DRSC38971	-0.092	-0.36	0.306	inactive
Nox	DRSC06596	0.473	-0.214	0.164	inactive
Nox	DRSC06857	1.25	0.0928	0.116	inactive
Nox	DRSC27816	0.449	-0.245	-0.166	inactive
Nox	DRSC29856	0.163	-0.465	-0.395	inactive
Su(var)205	DRSC03446	-4.7	-0.606	-1.91	active
Su(var)205	DRSC40702	0.526	-0.32	0.558	inactive
CG42855	DRSC06161	-2.49	0.0443	-2.15	active
ACXB	DRSC00845	-0.246	0.169	-4.69	inactive
ACXB	DRSC26343	0.188	0.0126	0.732	inactive
CG4678	DRSC19911	0.309	-0.233	-1.94	inactive
CG4678	DRSC19912	-0.19	-1.48	-0.806	inactive
CG1545	DRSC21532	-1.31	-1.4	-0.089	inactive
CG12547	DRSC07759	0.172	0.275	-0.157	inactive
Prosbeta2	DRSC11257	1.81	-0.699	1.87	active
Edc3	DRSC10620	0.013	-1.39	-1.91	inactive
Edc3	DRSC23994	-1.46	-0.539	-1.63	inactive
tut	DRSC08909	-0.0244	0.468	-1.28	inactive
Col4a1	DRSC03291	-0.263	-0.0812	-0.445	inactive
Mob3	DRSC02791	-3.2	-6.19	0.764	active
CG13075	DRSC09958	0.179	-0.439	-0.537	inactive
CG13075	DRSC28458	0.356	2.76	0.679	inactive
CG3650	DRSC04401	0.567	0.206	0.456	inactive
CG3650	DRSC28976	-0.426	-0.805	-0.893	inactive
CG11362	DRSC04106	0.381	0.216	-0.139	inactive
CG11362	DRSC22032	1.04	0.897	1.28	inactive
CG11362	DRSC27136	0.457	-1.12	-0.0996	inactive
ACXA	DRSC00844	-1.54	-2.06	1.22	inactive
ACXA	DRSC25338	1.23	-1.18	0.98	inactive
CG7781	DRSC03068	-9.54	-0.94	0.0167	inactive
CG11629	DRSC03695	0.61	0.228	1.02	inactive
Cpr67Fa1 + Cpr67Fa2	DRSC28050	0.516	-0.89	-1.94	inactive
Pal2	DRSC04507	-1.6	0.491	-0.204	inactive
CG12674	DRSC00348	0.648	-0.578	-0.89	inactive

Next part, starting with the last 11 of the part before.
target gene	DRSC id	Wolbachia per cell robust z, rep 1	Wolbachia per cell robust z, rep 2	Wolbachia per cell robust z, rep 3	Call
CG3650	DRSC28976	-0.426	-0.805	-0.893	inactive
CG11362	DRSC04106	0.381	0.216	-0.139	inactive
CG11362	DRSC22032	1.04	0.897	1.28	inactive
CG11362	DRSC27136	0.457	-1.12	-0.0996	inactive
ACXA	DRSC00844	-1.54	-2.06	1.22	inactive
ACXA	DRSC25338	1.23	-1.18	0.98	inactive
CG7781	DRSC03068	-9.54	-0.94	0.0167	inactive
CG11629	DRSC03695	0.61	0.228	1.02	inactive
Cpr67Fa1 + Cpr67Fa2	DRSC28050	0.516	-0.89	-1.94	inactive
Pal2	DRSC04507	-1.6	0.491	-0.204	inactive
CG12674	DRSC00348	0.648	-0.578	-0.89	inactive
Sxl	DRSC18721	-0.158	-0.426	-3.46	inactive
Sxl	DRSC18722	-2.9	-6.02	-3.05	inactive
Sxl	DRSC21490	-1.73	-1.16	-1.05	inactive
Sxl	DRSC28896	-0.0305	0.336	-0.599	inactive
CG12885	DRSC14572	-2.96	-0.356	0.178	inactive
CG12885	DRSC25241	0.616	0.677	0.719	inactive
CR33491 + CR33498 + CR33496 + 1 more	DRSC22969	-4.08	-1.73	-0.682	active
Golgin84	DRSC15269	-0.0603	-0.286	-0.138	inactive
g	DRSC20335	0.781	-0.158	0.232	inactive
g	DRSC26118	-1.64	-1.87	-0.695	active
CG11722	DRSC14358	-5.88	-0.511	-1.23	inactive
fd3F	DRSC23032	0.383	0.923	0.433	inactive
gpp	DRSC12515	0.406	0.258	0.87	inactive
gpp	DRSC28193	-0.573	0.961	-0.552	inactive
CG6893	DRSC10742	-4.1	-0.457	1.31	inactive
CG14448	DRSC11705	0.14	0.241	-0.0117	inactive
CG14448	DRSC30062	0.548	0.546	0.584	inactive
Lmpt	DRSC09450	-0.0449	0.114	0.847	inactive
Lmpt	DRSC09864	-1.69	-1.76	0.326	active
Lmpt	DRSC09865	0.0131	-1.03	-1.85	inactive
Lmpt	DRSC09866	-0.905	-0.639	0.169	inactive
Lmpt	DRSC11107	1.33	-2.59	1.03	inactive
Lmpt	DRSC21738	-1.54	0.965	-0.658	inactive
Lmpt	DRSC22921	0.266	0.637	0.364	inactive
Lmpt	DRSC25095	1.07	-0.0922	0.573	inactive
Lmpt	DRSC25282	-0.0118	1.11	0.303	inactive
Lmpt	DRSC29293	1.03	0.314	1.59	inactive
CG17380	DRSC15230	-0.688	0.241	-0.371	inactive
Atg3	DRSC10736	0.324	0.173	-1.65	inactive
Atg3	DRSC21758	0.464	0.675	0.0975	inactive
Atg3	DRSC29687	0.361	1.18	0.458	inactive
exd	DRSC20330	-0.0314	1.1	-3.27	inactive
exd	DRSC30099	1.05	1.83	0.83	inactive
exd	DRSC41279	-1.62	0.307	-0.584	inactive
CG7352	DRSC16233	1.81	-1.21	-0.0488	inactive
